Tests used:
Experiment in all cases: purified protein
Conditions in all cases: 10 mM HEPES pH 8.0, 1 mM NiCl2, 100 nM enzyme, 25 °C
[1] = system: C[N+](C)(C)CCOP(=O)([O-])Oc1ccc([N+](=O)[O-])cc1
[2] = system: O=[N+]([O-])c1ccc(OP(=O)(O)O)cc1
[3] = system: Cc1cn([C@H]2C[C@H](O)[C@@H](COP(=O)(O)Oc3ccc([N+](=O)[O-])cc3)O2)c(=O)[nH]c1=O

With “RsASML (Ralstonia pseudosolanacearum GMI1000)” the Km [1] was 18.55 ± 1.41 mM, the kcat [1] was 2.73 s⁻¹ and the kcat/Km [1] was 147 M⁻¹ s⁻¹. For the same substance, the Km [2] was 4.29 ± 0.27 mM, the kcat [2] was 0.0335 s⁻¹ and the kcat/Km [2] was 7.83 M⁻¹ s⁻¹. The Km [3] was 2.79 ± 0.22 mM, the kcat [3] was 2.26 s⁻¹ and the kcat/Km [3] was 811 M⁻¹ s⁻¹.

From paper PMC4140839 (PLoS ONE, 2014)
